Measurements from ChEMBL document CHEMBL6087437 (J Med Chem, 2025).

Assay: Selectivity index, ratio of CC50 for human A549 cells to EC50 for pseudotyped Ebola virus expressing glycoprotein infected in human A549 cells
Format: toxicity, cell-based

| Structure (SMILES) | Ratio CC50/EC50 |
| --- | --- |
| O=C(Nc1ccc(N2CCC3(CCC3)CC2)c(C(F)(F)F)c1)c1ccc(CN2C[C@H]3C[C@@H]2CO3)nc1 | 104 |
| O=C(Nc1ccc(N2CCC3(CCC3)CC2)c(C(F)(F)F)c1)c1ccc(CN2C[C@@H]3C[C@H]2CO3)nc1 | 234 |
